Compound potency records, mixed from different reports. Data source: NIAID ChemDB in PubChem.

Shared fields: tests in culture; agent: Candida albicans

An empty or dashed field is not shown. A number after MIC or MFC names an inhibition level or a share of isolates. ECn: concentration that inhibits the pathogen or its effect by n%. Neighbouring rows are from separate reports.

SMILES	strain or isolate	endpoint	read by	conditions	value
COc1ccc(C(=O)C(Cc2ccc(Cl)cc2Cl)c2ccc(Cl)cc2)cc1	28 strains	MIC50	-	-	256 µg/mL
COc1cccc(C2NCCn3c2c(C)c2ccccc23)c1	-	MIC90	-	-	250 µg/mL
C[C@@H](SC1COC(/C=C/C=C/c2ccc(C#N)cc2F)OC1)[C@](O)(Cn1cncn1)c1ccc(F)cc1F	25 isolates fluconazole-resistant	MIC90	-	-	4 µg/mL
CC[C@@H]([C@H](C)O)n1ncn(-c2ccc(N3CCN(c4ccc(OC[C@@H]5CO[C@@](Cn6cncn6)(c6ccc(F)cc6F)C5)cc4)CC3)cc2)c1=O	Isolate CA-1	MIC	-	-	>4 µg/mL
O=C(N/N=C(\COc1ccc(Cl)cc1)N=Cc1cccnc1)c1ccncc1	ATCC E10231	MIC	-	-	>100 µg/mL
CCc1c(C(c2ccccc2)n2cncn2)cnn1-c1ccccc1	-	MIC	-	-	>200 µM
O=C(CCCCCCCCCC(=O)C1=C(O)C(Cc2ccc(O)cc2)NC1=O)CCCCCCCCCC(O)CO[C@@H]1OC[C@H](CO)[C@@H](O)[C@H](O)[C@H]1O	MY1055	MIC	-	-	8 µg/mL
C=C[C@]1(C)CCC2C(=CCC3[C@]2(C)CCC[C@@]3(C)C(=O)O)C1	-	MIC	-	-	>100 µg/mL
Cc1c(OCc2ccccc2)c(=O)ccn1CCC1=NCCS1	-	MIC	-	-	75 µg/mL
CC(=O)Nc1ccc(OC/C(N)=N\NC(=O)c2ccncc2)cc1	ATCC E10231	MIC	-	-	>100 µg/mL
CCc1c(O)c(=O)ccn1CCC1=NCCS1	-	MIC	-	-	100 µg/mL
CC(C)c1c(C(c2ccccc2)n2ccnc2)cnn1-c1ccccc1	-	MIC	-	-	>200 µM
CCN1CCN(c2nc(NC(=S)N3CCN(C)C(c4ccccc4)C3)nc3ccccc23)CC1	MTCC 183	MIC	agar / visual reading	-	400 µg/mL
C[C@H]1[C@H](O)[C@@H](C)/C=C/C=C/C=C/C=C/C=C/C=C/C=C/[C@H](O[C@@H]2O[C@H](C)[C@@H](O)[C@H](N)[C@@H]2O)C[C@@H]2O[C@](O)(C[C@@H](O)C[C@@H](O)CC[C@H](O)[C@@H](O)C[C@@H](O)CC(=O)O[C@H]1C)C[C@H](O)[C@H]2C(=O)O	ATCC 90028	MIC	broth dilution	48 h	1 µg/mL
S=C(Nc1cccc(Cl)c1)Nc1nc(N2CCN(c3ccccc3)CC2)c2ccccc2n1	MTCC 183	MIC	agar / visual reading	-	25 µg/mL
Cn1ncc(C(c2ccccc2)n2cncn2)c1-c1ccccc1	-	MIC	-	-	>200 µM
Cc1cccc(OC/C(N=Cc2ccncc2)=N\NC(=O)c2ccncc2)c1	ATCC E10231	MIC	-	-	>100 µg/mL
COc1ccc(C(Cc2ccc(Cl)cc2)n2ccnc2)cc1	28 strains	MIC50	-	-	8 µg/mL
CC(C)(C)c1c(C(c2ccccc2)n2cncn2)cnn1-c1ccccc1	-	MIC	-	-	>200 µM
COc1cccc(OC/C(N)=N\NC(=O)c2ccncc2)c1	ATCC E10231	MIC	-	-	>100 µg/mL
O=c1ccn(CCC2=NCCS2)cc1OCc1ccccc1	-	MIC	-	-	75 µg/mL
c1cnc2c(c1)ccc1cccnc12	ATCC 10231	MIC	-	-	300 µg/mL
N/C(COc1ccccc1Cl)=N/NC(=O)c1ccncc1	ATCC E10231	MIC	-	-	>100 µg/mL
c1ccc(C(c2cnn(-c3ccccc3)c2)n2ccnc2)cc1	-	MIC	-	-	>200 µM
CCc1c(OCc2ccccc2)c(=O)ccn1CCC1=NCCS1	-	MIC	-	-	100 µg/mL
CCCc1c(C(c2ccccc2)n2cncn2)cnn1-c1ccccc1	-	MIC	-	-	>200 µM
O=C(N/N=C(\COc1ccc(Cl)cc1)N=Cc1ccncc1)c1ccncc1	ATCC E10231	MIC	-	-	>100 µg/mL
COc1ccc(C(Cc2ccc(Cl)cc2Cl)C(c2ccc(OC)cc2)n2ccnc2)cc1	28 strains	MIC50	-	-	8 µg/mL
CCC(C)n1ncn(-c2ccc(N3CCN(c4ccc(OC[C@H]5CO[C@](Cn6cncn6)(c6ccc(Cl)cc6Cl)O5)cc4)CC3)cc2)c1=O	Isolate CA-2	MIC	-	-	>8 µg/mL
Oc1ccc(Cl)c2ccc(Cl)nc12	ATCC 60193	MIC	-	-	12 µg/mL
c1ccc(-c2c(C(c3ccccc3)n3ccnc3)cnn2-c2ccccc2)cc1	-	MIC	-	-	>200 µM
O=C(N/N=C(\COc1ccccc1)N=Cc1cccnc1)c1ccncc1	ATCC E10231	MIC	-	-	>100 µg/mL
CC(N1CCN(c2ccc(-n3cnnn3)cc2)C1=O)[C@](O)(Cn1cncn1)c1ccc(F)cc1F	105 strains	MIC50	-	-	0.016 µg/mL
Cc1ccccc1OC/C(N)=N\NC(=O)c1ccncc1	ATCC E10231	MIC	-	-	>100 µg/mL
CC(C)N=C(N)c1ccc2nc(-c3ccc4c(c3)Cc3cc(-c5nc6ccc(C(N)=NC(C)C)cc6[nH]5)ccc3-4)[nH]c2c1	ATCC 76615	MIC	-	-	1.56 µg/mL
C[C@@]12CCC[C@@](C)(C(=O)O)C1CCC13CC4[C@H](CC12)[C@]4(C)C3	-	MIC	-	-	>100 µg/mL
Cc1cc(=O)c(OCc2ccccc2)cn1CC1=NCCS1	-	MIC	-	-	100 µg/mL
Cc1c2n(c3ccccc13)CCNC2c1ccccc1[N+](=O)[O-]	-	MIC90	-	-	250 µg/mL
CC(C)c1c(C(c2ccccc2)n2cncn2)cnn1-c1ccccc1	-	MIC	-	-	>200 µM
Cc1cc(=O)c(O)cn1CC1=NCCS1	-	MIC	-	-	50 µg/mL
Clc1ccc(C(Cn2ccnc2)OCc2csc3c(Cl)cccc23)c(Cl)c1	63 isolates	MIC90	visual reading	24 h	4 µg/mL
N/C(COc1cccc(Cl)c1)=N/NC(=O)c1ccncc1	ATCC E10231	MIC	-	-	>100 µg/mL
S=C(Nc1ccc(Cl)cc1)Nc1nc(N2CCN(c3ccccc3)CC2)c2ccccc2n1	MTCC 183	MIC	agar / visual reading	-	6.25 µg/mL
COc1ccc(CC(=O)c2ccc(OC)cc2)cc1	28 strains	EC50	-	-	>256 µg/mL
Cc1c2n(c3ccccc13)CCN(Cc1ccc3n[nH]nc3c1)C2	-	MIC90	-	-	250 µg/mL
COc1ccc(C(Cc2ccc(Cl)cc2)n2cnnc2)cc1	28 strains	MIC50	-	-	64 µg/mL
CCc1c(O)c(=O)ccn1CC1=NCCS1	-	MIC	-	-	100 µg/mL
C[C@@H](c1ncncc1F)[C@](O)(Cn1cncn1)c1ccc(F)cc1F	572-27	MIC	-	-	8 µg/mL
Cc1c2n(c3ccccc13)CCNC2c1ccc(Br)cc1	-	MIC90	-	-	62.5 µg/mL
Nc1[nH]c(=O)ncc1F	19 strains	MIC50	-	-	0.25 µg/mL
Cc1c2n(c3ccccc13)CCNC2c1cccs1	-	MIC90	-	-	250 µg/mL
CCN1CCN(c2nc(Nc3ccc(C(=O)/C=C/c4cc(C)c(O)c(C)c4)cc3)nc3ccccc23)CC1	MTCC 183	MIC	agar / visual reading	-	12.5 µg/mL
Cc1c2n(c3ccccc13)CCNC2c1ccccn1	-	MIC90	-	-	125 µg/mL
Cc1cc(=O)c(O)cn1CCC1=NCCS1	-	MIC	-	-	50 µg/mL

The first 6 rows once more:

SMILES	strain or isolate	endpoint	read by	conditions	value
COc1ccc(C(=O)C(Cc2ccc(Cl)cc2Cl)c2ccc(Cl)cc2)cc1	28 strains	MIC50	-	-	256 µg/mL
COc1cccc(C2NCCn3c2c(C)c2ccccc23)c1	-	MIC90	-	-	250 µg/mL
C[C@@H](SC1COC(/C=C/C=C/c2ccc(C#N)cc2F)OC1)[C@](O)(Cn1cncn1)c1ccc(F)cc1F	25 isolates fluconazole-resistant	MIC90	-	-	4 µg/mL
CC[C@@H]([C@H](C)O)n1ncn(-c2ccc(N3CCN(c4ccc(OC[C@@H]5CO[C@@](Cn6cncn6)(c6ccc(F)cc6F)C5)cc4)CC3)cc2)c1=O	Isolate CA-1	MIC	-	-	>4 µg/mL
O=C(N/N=C(\COc1ccc(Cl)cc1)N=Cc1cccnc1)c1ccncc1	ATCC E10231	MIC	-	-	>100 µg/mL
CCc1c(C(c2ccccc2)n2cncn2)cnn1-c1ccccc1	-	MIC	-	-	>200 µM